Results of unrelated studies side by side (data: NIAID ChemDB).

All rows: target-level tests

Fold resistance has wild type as its base. Blank or dashed fields: not listed here. Inhibition is in % at the dose shown (toxicity tests: loss of growth or viability). Rows are shuffled and stem from different studies. ICn: concentration for n% inhibition.

structure	changes	target	method	conditions	endpoint	tested at	value
C[C@@H]1CN(C(=O)c2ccccc2)CCN1C(=O)C(=O)c1c[nH]c2nccc(OCCOCCOCCOCCOCCOCCn3cc(COCCOCCOCCOCCNc4ccc([N+](=O)[O-])cc4[N+](=O)[O-])nn3)c12		gp120	ELISA		IC50		8.7 µM
CC(C)(C)NC(=O)[C@@H]1CN(Cc2cnc3occc3c2)CCN1C[C@@H](O)C[C@@H](Cc1ccccc1)C(=O)N[C@H]1c2ccccc2C[C@H]1O		Cytochrome P450			IC50		~10 µM
CC(C)[C@H](NC(=O)[C@@H](NC(=O)C1CCCC1P(=O)(O)C(Cc1ccccc1)NC(=O)OCc1ccccc1)C(C)C)C(N)=O		Cathepsin D		pH 3.5	Ki		0.3 µM
CCOC(=O)C1=CN(Cc2ccccc2)C2C(CO)(C3N(Cc4ccccc4)C=C(C(=O)OCC)[C@H](c4ccccc4)C23CO)[C@H]1c1ccccc1		P-glycoprotein	fluorescence		IC50		64.76 µM
Brc1c(Br)c(Br)c2[nH]c(I)nc2c1Br		Protein kinase C			IC50		>30 µM
C[C@@H](O)[C@H](NC(=O)OCc1ccccc1)C(=O)N[C@@H](CO)C(=O)NN		S-adenosylmethionine decarboxylase			IC50		75 µM
CN(CC(C)(CCN1CCC(N(CCO)C(=O)OCc2ccc([N+](=O)[O-])cc2)CC1)c1ccsc1)S(=O)(=O)c1ccccc1	CCR5-Y37A	CCR5	radiometric		IC50		0.0033 µM
O=c1[nH]c(=O)n([C@H]2C[C@H](F)[C@@H](CO)O2)cc1Cl		Thymidine kinase	thymidine uptake / kinase activity		Ki		6.1 µM
Clc1c(Cl)c(Cl)c2n[nH]nc2c1Cl		Protein kinase C			IC50		>30 µM
CN(CCCCON)C[C@H]1O[C@@H](n2cnc3c(N)ncnc32)[C@H](O)[C@@H]1O		S-adenosylmethionine decarboxylase			IC50		0.01 µM
CCN(C(=O)OCc1ccccc1)C1CCN(CC[C@](C)(CN(C)S(=O)(=O)c2ccccc2)c2ccccc2)CC1	CCR5-W86A	CCR5	radiometric		fold resistance		52.5
C[C@@H]1NC(=O)[C@H](CCCN=C(N)N)NC(=O)[C@H](CCCN=C(N)N)NC(=O)[C@@H](Cc2ccc(O)cc2)NC(=O)CNC1=O		CXCR4	radiometric		IC50		>1 µM
C=C[C@@H]1C[C@]1(NC(=O)[C@@H]1C[C@@H](Oc2nccc3ccc(Br)cc23)CN1C(C)=O)C(=O)NS(=O)(=O)C1CC1		Cys159	FRET		IC50		>3 µM
NC(N)=NCCC[C@@H]1NC(=O)CNC(=O)[C@H](Cc2ccc3ccccc3c2)NC(=O)[C@H](CCCN=C(N)N)NC(=O)[C@H](Cc2ccc(F)cc2)NC1=O		CXCR4	radiometric		IC50		0.62 µM
Cc1cc(SC2=C(O)C[C@@](CCc3ccc(O)cc3)(C(C)C)OC2=O)c(C(C)(C)C)cc1CO		Cytochrome P450 2D6			inhibition	1 µM	5%
Nc1ncnc2c1ncn2CCOCP(=O)(O)O		Adenosine deaminase			IC50		>500 µM
O=c1[nH]c(=O)n([C@H]2C[C@H](F)[C@@H](CO)O2)cc1Br		Thymidine kinase	thymidine uptake / kinase activity		Ki		5.7 µM
CN1CC[C@H](c2c(O)cc(O)c3c(=O)cc(-c4ccccc4F)oc23)[C@H](O)C1		Cyclin-dependent kinase 3	kinase activity		IC50		1.423 µM
CCCCC1C(=O)Nc2cc(C(=O)N3CCN(C(C)(C)OC(C)=O)CC3)ccc2N1CC		DC-SIGN	fluorescence		IC50		270 µM
O=C(c1ccccc1)N1C[C@H](CN2CCC(c3ccccc3)CC2)[C@@H](c2ccccc2)C1		CCR5	radiometric		IC50		0.01 µM
CC(C)[C@H](NC(=O)[C@@H](NC(=O)C1CCCCC1P(=O)(O)C(Cc1ccccc1)NC(=O)OCc1ccccc1)C(C)C)C(N)=O		Cathepsin D		pH 3.5	Ki		0.3 µM
O=C(O)c1cc(SSc2ccc([N+](=O)[O-])c(C(=O)O)c2)ccc1[N+](=O)[O-]		Protein disulfide isomerase			IC50		6.8 µM
O=C(O)c1cc(O)cc(O)c1N=Nc1ccc(/C=C/c2ccc(N=Nc3c(O)cc(O)cc3C(=O)O)cc2S(=O)(=O)O)c(S(=O)(=O)O)c1		gp120			inhibition	50 µM	100%
CN(CCNC(=O)NN)CC1OC(n2cnc3c(N)ncnc32)C(O)C1O		S-adenosylmethionine decarboxylase			IC50		0.6 µM
CC(C)(C)OC(=O)N[C@@H](Cc1ccccc1)[C@H](O)CNC[C@@H](O)[C@H](Cc1ccc(OCC(=O)N2CCOCC2)cc1)NC(=O)OC(C)(C)C		Cathepsin D	absorbance		IC50		>31 µM
Clc1nc2cc(Br)c(Br)cc2[nH]1		Protein kinase C			IC50		>30 µM
O=C1N(Cc2ccc(CO)cc2)[C@H](Cc2ccccc2)[C@H](O)[C@@H](O)[C@@H](Cc2ccccc2)N1Cc1ccc(CO)cc1		Cathepsin D			inhibition	200 µM	2.5%
NC(N)=NCCC[C@@H]1NC(=O)[C@H](CCCN=C(N)N)NC(=O)[C@@H](Cc2ccc(O)cc2)NC(=O)CNC(=O)[C@H](Cc2nc3ccccc3s2)NC1=O		CXCR4	radiometric		IC50		0.018 µM
[N-]=[N+]=N[C@H]1C[C@H](n2cc(I)c(=O)[nH]c2=O)O[C@@H]1COP(=O)(O)OP(=O)(O)OP(=O)(O)O		Thymidylate kinase	nucleotide incorporation		Ki		55.3 µM
CC[C@H](C)[C@H](NC(=O)OCc1ccccc1)C(=O)N[C@@H](Cc1cnc[nH]1)C(=O)NC(Cc1ccccc1)P(=O)(O)CC(Cc1ccccc1)C(=O)N[C@H](C(=O)N[C@H](C(N)=O)C(C)C)C(C)C		Cathepsin D		pH 3.5	Ki		0.011 µM

3 of the rows above, restated:

structure,changes,target,method,conditions,endpoint,tested at,value
Cc1cc(SC2=C(O)C[C@@](CCc3ccc(O)cc3)(C(C)C)OC2=O)c(C(C)(C)C)cc1CO,,Cytochrome P450 2D6,,,inhibition,1 µM,5%
CN(CC(C)(CCN1CCC(N(CCO)C(=O)OCc2ccc([N+](=O)[O-])cc2)CC1)c1ccsc1)S(=O)(=O)c1ccccc1,CCR5-Y37A,CCR5,radiometric,,IC50,,0.0033 µM
C=C[C@@H]1C[C@]1(NC(=O)[C@@H]1C[C@@H](Oc2nccc3ccc(Br)cc23)CN1C(C)=O)C(=O)NS(=O)(=O)C1CC1,,Cys159,FRET,,IC50,,>3 µM